The record followed here is patent US20120207760A1, “Compositions and Methods for the Therapy and Diagnosis of Influenza” (THERACLONE SCIENCES, published 2012).

Test [1] has as its target recombinant soluble homotrimeric HA of A/Hong Kong/156/97 - H5N1 (Influenza A virus A/Hong Kong/156/97 …). As to the kind of experiment: micro-array; captured IgG, V5-tagged trimeric HA.
In test [2] the target is recombinant soluble homotrimeric HA of A/chicken/Vietnam/NCVD-016/08 - H5N1 (Influenza A virus …). As to the kind of experiment: micro-array; captured IgG, V5-tagged trimeric HA.
The target of test [3] is recombinant soluble homotrimeric HA of A/duck/Yangzhou/02/2005 - H8N4 (Influenza A virus …). As to the kind of experiment: micro-array; captured IgG, V5-tagged trimeric HA.
Test [4] has as its target recombinant soluble homotrimeric HA of A/northern shoveler/California/HKWF115/2007 - H6N1 (Influenza A virus A/northern …). In words: micro-array; captured IgG, V5-tagged trimeric HA.
The target in test [5] is recombinant soluble homotrimeric HA of A/Netherlands/219/03 - H7N7 (Influenza A virus A/Netherlands/219/03 …).
Test [6] addresses recombinant soluble homotrimeric HA of A/Anhui/1/05 - H5N1 (Influenza A virus A/Anhui/1/2005 (H5N1)).
Test [7] addresses T1, hemagglutinin (HA) of influenza A/Wisconsin/67/05 H3N2 (Influenza A virus A/Wisconsin/67/2005 …). As to the kind of experiment: ELISA, inactivated whole virions coated; transfection supernatant set 2.
Test [8] addresses T1, hemagglutinin (HA) of influenza …. In words: ELISA, inactivated whole virions coated; transfection supernatant set 3. For orientation: An ELISA detects its analyte on a solid surface through an enzyme-linked reagent.
For test [9], the target named is recombinant soluble homotrimeric HA of A/Egypt/3300-NAMRU3/08 - H5N1 (Influenza A virus …). In words: micro-array; captured IgG, V5-tagged trimeric HA.
The target of test [10] is recombinant soluble homotrimeric HA of A/duck/Yangzhou/02/05 (H8N4) (Influenza A virus …). As to the kind of experiment: microarray, BCC supernatant IgG, trimeric HA.
For test [11], the target named is recombinant soluble homotrimeric HA of A/California/4/09 (H1N1) (Influenza A virus A/California/4/09 …). As to the kind of experiment: microarray, BCC supernatant IgG, trimeric HA.
Test [12] concerns the target recombinant soluble homotrimeric HA of A/chicken/Vietnam/NCVD-016/08 (H5N1) (Influenza A virus …). In words: microarray, BCC supernatant IgG, trimeric HA.
Test [13] addresses recombinant soluble homotrimeric HA of A/northern shoveler/California/HKWF115/07 (Influenza A virus A/northern …). In words: microarray, BCC supernatant IgG, trimeric HA.
The target in test [14] is recombinant soluble homotrimeric HA of A/Egypt/3300-NAMRU3/08 (H5N1) (Influenza A virus …). As to the kind of experiment: microarray, BCC supernatant IgG, trimeric HA.
The target in test [15] is recombinant soluble homotrimeric HA of A/Hong Kong/2108/03 (H9N2) (Influenza A virus A/Hong Kong/2108/03 …). In words: microarray, BCC supernatant IgG, trimeric HA.
In test [16] the target is recombinant soluble homotrimeric HA of A/Netherlands/219/03 (H7N7) (Influenza A virus A/Netherlands/219/03 …).
Test [17] addresses recombinant soluble homotrimeric HA of A/Wisconsin/67/05 (H3N2) (Influenza A virus A/Wisconsin/67/05 …).
The target in test [18] is recombinant soluble homotrimeric HA of A/Indonesia/5/05 (H5N1) (Influenza A virus A/Indonesia/5/05 …).
Test [19] addresses recombinant soluble homotrimeric HA of A/Anhui/1/05 (H5N1) (Influenza A virus A/Anhui/1/05 (H5N1)).

B1: TCN-557 (5081_A04) (antibody, V domains shown)
VH: QVQLVQSGAEVKKPGASVKVSCKASGHTFTGYYIHWVRQAPGQGLEWMGWINPDSGATSSAQNFQGRVTMTGDTSSSTAYMELSRLSFDDTAVYYCARVLFTSPFDFWGEGTLVTVSS
VL: QAVVTQEPSLAVSPGGTVTLTCGSSTGAVTRGHYPYWFQQKPGQAPRALIYDSAGNRHSWTPARFSGSLLGGKAALTLSGAQPEDEAEYYCLLSYSGVWVFGGGTKLTVL
Regarding B1, the “Trimeric HA Binding: RLU” value in test [1] amounted to 27100 RLU; in test [2], 23300 RLU; in test [3], 24000 RLU; in [4] it was 49600 RLU; in test [5], 53700 RLU; in test [6] it was 20000 RLU.

B2: TCN-522 (3212_I12) (antibody, V domains shown)
VH: QVQLQQWGAGLLKPSETLSLTCTVSGGSLTDYSWNWIRQPPGKGLEWIGDTLHNGYTNYNPSLRGRVSISIDTSKNQVSLRLTSVTAADTALYYCARGSGGYGGFDYFGKLRTWDFWGQGTLVTVSS
VL: DIQLTQSPSSLSASVGDRVTITCRASQGIRNDLGWYQQKPGNAPKRLIFGASSLQSGVPSRFSGSGSGTEFTLTISSLQPEDFATYYCLQHNSYPYTFGQGTKLEIK
On to B2, for which the OD450 in [7] stood at 0.07 OD450.

B3: TCN-531 (5091_H13) (antibody, V domains shown)
VH: EVQLVESGGDLVQPGRSLKLSCTGSGFTFGDYGVTWVRQAPGKGLEWVGFIRTRPWGGTADTAASVKGRFTISRDDSKSLAYLQMNSLKTEDTAVYYCCRDAPPNVEVASMTNWYFDLWGRGTLVTVSS
VL: DIQLTQSPSSLSASVGDRVTITCRASQGILNCLAWYQQKPGKVPNLLMYAASTLQSGVPSRFSGSGFGTDFTLTISSLQPEDVATYYCQTYGGVSTFGGGTKVEIR
With B3, the OD450 in test [8] was 3.59 OD450.

B4: TCN-554 (5277_M05) (antibody, V domains shown)
VH: QVQLVQSGADLKKPGASVKVSCKASGYTFTDYYIHWVRQAPGQGLEWMGWINPESGDTKYAQKFQGRVTMTRDTSITTAYMELGRLRSDDTAVYYCARDVSTTWSWFAPWGQGTLVTVSS
VL: DIVMTQSPDSLAVSLGERATINCRSSQSIFHNSNNENYLAWYQQKPGQPPKLLIYWASTRESGVPDRFSGSGSGTDFTLTISSLQAEDVAVYFCQQYYNAPLTFGGGTKVEIK
In the case of B4, the “Trimeric HA Binding: RLU” value in test [2] stood at 2710 RLU; in test [3] it was 5810 RLU; in [5], 4520 RLU.

B5: TCN-526 (5084_C17) (antibody, V domains shown)
VH: EVLMVESGGGLVQPGGSVRLSCVASGFSFSSHWMTWVRQAPGKGLEWVANIEDDGGDKYYVDSVKGRFIISRDNAKNSVYLQMNSLRAEDTAVYFCARGSGSSDRSDYDPHYYYYLDVWGKGATVTVSS
VL: DIQLTQSPSSLSASVGDRVTITCRASQSISRYLNWYQQKPGKAPKLLLFAASTLLDGVPSRFSGSGSGTDFTLTISSLQPEDFATYYCQRNHSPSWTFGQGTRVEIK
In test [7], B5 returned an OD450 of 0.31 OD450.

B6: TCN-540 (5060_F05) (antibody, V domains shown)
VH: QVQLVQSGGGVVQPGRSLRLSCAASGFTFSSYAMHWVRQAPGKGLEWVAIISYDGNDQYYTDSVKGRFTISRDSSKVYLQMHRLRPEDTAVYYCAKEFETSGYFHGSFDYWGQGILVTVSS
VL: QSALTQPASVSGSPGQSITISCTGTSSDVGGYNYVSWYQQHPGKAPKLLIYEVTNWPSGVSNRFSGSKSGNTASLTISGLQAEDEADYYCSSYAGSSTWVFGGGTRVTVL
On to B6, for which the “Trimeric HA Binding: RLU” value stood at 1550 RLU in test [1]; 1510 RLU in [2]; 6080 RLU in test [3]; 2460 RLU in test [4]; 15600 RLU in [9]; 4390 RLU in test [5]. For the same molecule, the “Trimeric HA Binding: RLU” value in [6] came to 2190 RLU.

B7: TCN-540 (5060_F05) (antibody, V domains shown)
VH: QVQLVQSGGGVVQPGRSLRLSCAASGFTFSSYAMHWVRQAPGKGLEWVAIISYDGNDQYYTDSVKGRFTISRDSSKVYLQMHRLRPEDTAVYYCAKEFETSGYFHGSFDYWGQGILVTVSS
VL: QSALTQPASVSGSPGQSITISCTGTSSDVGGYNYVSWYQQHPGKAPKLLIYEVTNWPSGVSNRFSGSKSGNTASLTISGLQAEDEADYYCSSYAGSSTWVFGGGTRVTVL
As for B7, the “Trimeric HA Binding: RLU” value in test [10] amounted to 117 RLU; in test [11], 57 RLU; in [12], 70 RLU; in test [13], 131 RLU; in test [14] it was 1970 RLU; in test [15], 22 RLU. Besides, the “Trimeric HA Binding: RLU” value came out at 381 RLU in test [16], 728 RLU in [17], 31 RLU in test [18] and 25 RLU in test [19].

B8: TCN-543 (5081_G23) (antibody, V domains shown)
VH: QVHLVQSGAEVRKPGDSVKVSCKTSGYTFSTYPVAWVRQVPGQGLEWMGWISTYNGNTNFAQNFQGRVTLTTDTTTNTAYMEVRSLKFDDTAVYYCARVEGSYRDFWNNQNRFDPWGQGTLVTVSS
VL: SYVLTQPPSVSVAPGQTARISCGGSNIGGKSVHWYQQKPGQAPVLVVYDDSGRPSGIPERFSGSNSGDTATLTISRVEAGDEADYFCQVWDNFGGVFGTGTKVTVL
Take B8: the “Trimeric HA Binding: RLU” value in test [1] amounted to 1430 RLU; in test [2], 5880 RLU; in [3], 13100 RLU; in [4] it was 2510 RLU; in [9] it was 17600 RLU; in [5] it was 12900 RLU. Moreover, the “Trimeric HA Binding: RLU” value in [6] worked out at 2630 RLU.

B9: TCN-563 (5237_B21) (antibody, V domains shown)
VH: QVQLAQSGAEVKRPGSSVKVSCTASGGIFRKNAISWVRQAPGQGLEWMGGIIAVFNTANYAQKFQGRVKITADESGNTAYMELSSLRSDDTAVYYCASHPKYFYGSGSYPDFWGQGTLVTVSS
VL: QSALTQPRSVSGSPGQSVTISCTGSSSDVGASNSVSWYQQHPGKAPKLVIYDVTERPSGVPHRFSGSKSGNTASLTVSGLQPEDEADYFCCAYGGKYLVVFGGGTKVTVL
In test [7], B9 had an OD450 of 0.09 OD450.

B10: TCN-527 (5086_C06) (antibody, V domains shown)
VH: QVQLQESGPGLVKPSETLSLNCAVSGGSISNYYWSWIRQPPGKGLEWIGYISYNGRPKYNPSLTSRVTISVDTSKDQFSLELRSVTAADTALYYCARETRFGELLSPYDAFEIWGQGTMVTVSS
VL: DIQMTQSPSSLSASVGDRVTMTCRASQNIRSYLNWYQQRPGTAPKLLIYAASTLHSGVPSRFSGGGSGTDFTLTINNLQPEDFASYYCQQSYDNPQTFGQGTKVEIK
The molecule B10 returned an OD450 in test [7] of 0.14 OD450.

B11: TCN-547 (5092_F11) (antibody, V domains shown)
VH: QVQLQESGPGLVKPSQTLSLTCTVSGDSISSVDHYWSWIRQHPVKGLEWIGFMYYSASTYYNPSLKSRVTISTDTSKNQFSLRLSSVTAADTAVYYCARGTCAGDCSLHYYYYGLDVWGQGRTVTVSS
VL: DIQMTQSPSSLSASVGDRVTITCRASQSISSYLNWYQHKPGKAPKVLMYAVSILQSGVPSRFSGSGSGADFTLTISSLQPEDFATYYCQQSYSSPLTFGGGTKVEIK
Consider B11, for which the “Trimeric HA Binding: RLU” value in test [2] is 1320 RLU; in [3], 3340 RLU; in [4], 2620 RLU; in [9] it was 16800 RLU; in [5] it was 2090 RLU.

B12: TCN-528 (5087_P17) (antibody, V domains shown)
VH: QVQLVQSGSEVKKPGASVKVSCKASGYTFTNYDINWIRQAPGQGLEWMGWINPNSGTTGSAQRFQGRVTITVDTSITTVYMELSSLRSDDTAIYYCARGRELLRLQHFLTDSQSERRDCFDPWGQGTLVTVSS
VL: DIQMTQSPSSLSASVGDRVTITCRANQDIGIYLNWYQQNPGKVPKLLLHGASSLQGGVPSRFSASGSGTDFTLTIHSLQPEDLATYYCQQSRRLPYTFGQGTRVELK
In test [7], B12 came in with an OD450 of 0.23 OD450.

B13: TCN-558 (5248_H10b) (antibody, V domains shown)
VH: QVQLVQSGSEVKKPGTSVKVSCTASGSVFTNYGISWVRQAPGQGLEWMGGIIPLFGAAKYAQKFQGRVTITADESTKTVYMELSRLTSKDTAIYFCAKAPRVYEYYFDQWGQGTPVTVSS
VL: EIVMTQFPATLSVSPGERVTLSCRASQSVSNNLAWYQQKPGQPPRLLIYDASTRATGVPAKFSGTGSGTEFTLSISSLQSEDFAVYYCQQYHNWPPSYSFGLGTKLEIK
Turning to B13, the “Trimeric HA Binding: RLU” value worked out at 33400 RLU in test [2], 29400 RLU in test [4] and 5840 RLU in test [5].
